Anti-infective test results gathered from many reports (values: NIAID ChemDB through PubChem).

All rows: growth or infection tests; species: HIV-1; measure: inhibition

Percent inhibition refers to the dose given; in toxicity tests it is the harm to the cells. Lines come from different laboratories, so protocols vary. An empty or dashed field is not shown.

| smiles | method | dose | strain | conditions | cells | value |
|---|---|---|---|---|---|---|
| C/C=C(\C)C(=O)O[C@H]1[C@H]2[C@@H](CC=C3C[C@@H](O[C@H]4C[C@@H](OC)[C@H](O[C@@H]5OC(C)[C@@H](O[C@@H]6OC(CO)[C@@H](O)[C@H](O)C6O)[C@H](OC)C5O)C(C)O4)CC[C@@]32C)[C@@]2(O)CC[C@H](C(C)=O)[C@@]2(C)[C@@H]1OC(=O)/C(C)=C/C | luciferase | 30 µM | - | pseudotyped | SupT1 | 25.14% |
| Nc1nc2c(ncn2CC#CCO)c(=O)[nH]1 | cytopathic effect / trypan blue | 100 µM | IIIB | - | ATH8 | 0% |
| O=C(O)c1cn(C2CC2)c2cc(N3CCNCC3)c(F)cc2c1=O | cytopathic effect / XTT | 50 µg/mL | IIIB | - | MT-4 | 0% |
| C/C=C(\C)C(=O)O[C@H]1[C@H]2[C@@H](CC[C@H]3C[C@@H](O[C@H]4C[C@@H](OC)[C@H](O[C@@H]5OC(C)[C@@H](O[C@@H]6OC(CO)[C@@H](O)[C@H](O)C6O)[C@H](OC)C5O)C(C)O4)CC[C@@]32C)[C@@]2(O)CC[C@H](C(C)=O)[C@@]2(C)[C@@H]1OC(=O)c1ccccc1 | luciferase | 30 µM | - | pseudotyped | SupT1 | 25.52% |
| Nc1ncnc2c1ncn2C/C=C\CO | cytopathic effect / trypan blue | 500 µM | IIIB | - | ATH8 | 0% |
| NC(N)=NCCC[C@H](N)C(=O)NCC(=O)N1CCC[C@H]1C(=O)NCC=O | syncytia | 25 µg/mL | IIIB | - | H9 | 50% |
| O=C1N(Cc2ccc3ccccc3c2)[C@H](Cc2ccccc2)[C@H](O)[C@@H](O)[C@@H](Cc2ccccc2)N1C1CCCC1 | hybridisation | 0.66 µM | RF | - | MT-2 | 90% |
| CC(C)C[C@H](NC(=O)[C@H](Cc1ccccc1)NC(=O)CNC(=O)CNC(=O)[C@@H](N)Cc1ccc(O)cc1)C(=O)OC[C@@H](O)[C@@H](O)[C@H](O)[C@@H](O)C=O | syncytia / RT activity | 100 µM | - | - | PBL | 28% |
| Nc1ccn(C/C=C/CCl)c(=O)n1 | cytopathic effect / trypan blue | 100 µM | IIIB | - | ATH8 | 0% |
| C=COCCN1C(=O)N(CCOC=C)[C@H](Cc2ccccc2)[C@H](O)[C@@H](O)[C@H]1Cc1ccccc1 | hybridisation | 107 µM | RF | - | MT-2 | <90% |
| C/C=C(\C)C(=O)O[C@H]1[C@H]2[C@@H](CC[C@H]3C[C@@H](O[C@H]4C[C@@H](OC)[C@H](O[C@@H]5OC(C)[C@@H](O[C@@H]6OC(CO)[C@@H](O[C@@H]7OC(CO)[C@@H](O)[C@H](O)C7O)[C@H](O)C6O)[C@H](OC)C5O)C(C)O4)CC[C@@]32C)[C@@]2(O)CC[C@H](C(C)=O)[C@@]2(C)[C@@H]1OC(=O)/C(C)=C/C | luciferase | 30 µM | - | pseudotyped | SupT1 | 33.81% |
| CCCCCCCCCCCCCCCCOCC(Cl)COP(=O)([O-])OCC[N+](C)(C)C | RT activity | 10 µM | IIIB | - | H9 | 61% |
| O=c1oc2ccccc2c2c1C(c1ccccn1)c1c(c3ccccc3oc1=O)O2 | p24 / ELISA | 100 µM | 93IN101 | - | SupT1 | 20% |
| COC(=O)c1cc2c3ccccc3n3c(=O)ccc(n1)c23 | p24 / ELISA / antigen | 3.59 µM | NL4-3 | - | CEM-GFP | 0% |
| O=c1oc2ccccc2c2c1C(c1ccncc1)c1c(c3ccccc3oc1=O)O2 | p24 / ELISA | 100 µM | 93IN101 | - | SupT1 | 20% |
| O=C1N(Cc2ccc(CO)cc2)[C@H](Cc2ccccc2)[C@H](O)[C@@H](O)[C@@H](Cc2ccccc2)N1Cc1ccc(CO)cc1 | virus yield | 0.14 µM | A018A PRE-AZT | - | MT-2 | 90% |
| CCCC(=O)O[C@H]1CN2CC[C@H](O)[C@@H]2[C@@H](O)[C@@H]1O | p24 / ELISA / cell fusion | 1 µg/mL | H9/HXB2 | - | JM | 39% |
| Cc1cn([C@H]2C[C@H](OC=O)[C@@H](CO)O2)c(=O)[nH]c1=O | cytopathic effect | 20 µM | - | - | CEM | 30% |
| CCCCCCCCCc1ccc(OCCOCCOCCOCCOCCOCCOCCOCCOCCO)cc1 | XTT / p24 | 10 µg/mL | - | - | MT-4 | 100% |
| C/C=C(\C)C(=O)O[C@@H]1[C@@H](OC(=O)c2ccccc2)[C@]2(C)[C@@H](C(C)=O)CC[C@@]23O[C@]32CC=C3C[C@@H](O[C@H]4C[C@@H](OC)C(O[C@@H]5OC(C)C(O[C@@H]6OC(CO)C(O)[C@H](O)C6O)[C@H](OC)C5O)C(C)O4)CC[C@]3(C)[C@@H]12 | luciferase | 30 µM | - | pseudotyped | SupT1 | 13.5% |
| [B-]P(=O)([O-])CC[C@@H]1C=C[C@H](n2cc(C)c(=O)[nH]c2=O)O1 | β-galactosidase | 400 µM | NL4.3 p24 antigen | - | MAGI | 0% |
| O=CCNC(=O)[C@@H]1CCCN1 | syncytia | 250 µg/mL | IIIB | - | H9 | 100% |
| Nc1nc2c(ncn2C/C=C/CO)c(=O)[nH]1 | cytopathic effect / trypan blue | 200 µM | IIIB | - | ATH8 | 8% |
| CCCCCCCCCCCCCCCCCC(=O)NCC(COP(=O)([O-])OCC[N+](C)(C)C)OCC | plaque count / syncytia | 1 µM | LAV | - | U1(HIV-1 (LAV)) + U1 | 67% |
| CC(C)c1nc(CN(C)C(=O)N[C@H](C(=O)N[C@@H](Cc2ccccc2)C[C@H](O)[C@H](Cc2ccccc2)NC(=O)OCc2cncs2)C(C)C)cs1 | β-galactosidase | 0.1 µg/mL | IIIB | - | MAGI | 0% |
| Cc1cn([C@H]2C[C@H](N=[N+]=[N-])[C@@H](CO)O2)c(=O)[nH]c1=O | luciferase | 0.001 µM | NL4-3 Recombinant | - | Jurkat cells | 30% |
| C/C=C(\C)C(=O)O[C@@H]1[C@@H](OC(=O)c2ccccc2)[C@H]2[C@@H](CC[C@H]3C[C@@H](O[C@H]4C[C@@H](OC)[C@H](O[C@@H]5OC(C)[C@@H](O[C@@H]6OC(CO)[C@@H](O)[C@H](O)C6O)[C@H](OC)C5O)C(C)O4)CC[C@@]32C)[C@@]2(O)CC[C@H](C(C)=O)[C@@]12C | luciferase | 30 µM | - | pseudotyped | SupT1 | 15.63% |
| Cc1cn([C@H]2C[C@H](N=[N+]=[N-])[C@@H](COC(=O)CCC(=O)Nc3ccn([C@H]4CC[C@@H](CO)O4)c(=O)n3)O2)c(=O)[nH]c1=O | cytopathic effect | 1 µM | - | - | - | 100% |
| CC(C)C[C@H](NC(=O)[C@H](Cc1ccccc1)NC(=O)CNC(=O)CNC(=O)[C@@H](N)Cc1ccc(O)cc1)C(=O)N[C@@H]1[C@@H](O)[C@H](O)[C@@H](CO)O[C@H]1O | syncytia / RT activity | 100 µM | - | - | PBL | 28% |
| Cc1cn([C@H]2C[C@H](N=[N+]=[N-])[C@@H](CO)O2)c(=O)[nH]c1=O | antigen | 0.08 µg/mL | IIIB | - | C8166 | 71% |
| COCCOCCN1C(=O)N(CCOCCOC)[C@H](Cc2ccccc2)[C@H](O)[C@@H](O)[C@H]1Cc1ccccc1 | hybridisation | 94 µM | RF | - | MT-2 | <90% |
| O=C(O)P(=O)(O)O | cytopathic effect | 100 µg/mL | LAV Laboratory strain | - | ATH8 | 87% |
| OC[C@H]1NC[C@H](O)[C@@H](O)[C@@H]1O | cell fusion | 320 µg/mL | IIIB | - | MOLT-4 | 87% |
| CCC[C@@]1(CCc2ccccc2)CC(O)=C([C@H](CC)c2cccc(NS(=O)(=O)c3ccc(C(F)(F)F)cn3)c2)C(=O)O1 | p24 | 0.17 µM | Isolate N. Amer 2 | - | PBMC | 90% |
| CC(C)=CCCn1c2ccccc2c2cc(C(=O)C3CSCCN3)nc(C)c21 | p24 / ELISA / antigen | 19.76 µM | NL4-3 | - | CEM-GFP | 0% |
| Nc1ccn(C=C=CCO)c(=O)n1 | cytopathic effect / trypan blue | 0.2 µM | IIIB | - | ATH8 | 68% |
| Cc1cn([C@H]2C[C@H](N=[N+]=[N-])[C@@H](CO)O2)c(=O)[nH]c1=O | virus yield | 10 µM | LAV-1 | - | U-937 | >100% |
| Cc1ccnc2c1NC(=O)c1cccnc1N2C1CC1 | syncytia | 0.01 µM | LAV-1 | - | HT4 + HT4-6C | 19% |
| Nc1nc2c(ncn2C/C=C\CO)c(=O)[nH]1 | cytopathic effect / trypan blue | 1000 µM | IIIB | - | ATH8 | 4% |
| Cc1cn([C@H]2C[C@H](N=[N+]=[N-])[C@@H](CO)O2)c(=O)[nH]c1=O | p24 / ELISA | 0.003 µg/mL | IIIB | - | HuT-78 + HUT 78 | 90% |
| CCCCCCCCCc1ccc(OCCOCCOCCOCCOCCOCCOCCOCCOCCO)cc1 | p24 / ELISA | 10 µg/mL | IIIB | - | MT-4 | 100% |
| CC(C)[C@H](NC(=O)c1ccc2ccccc2n1)C(=O)N[C@@H](Cc1ccccc1)[C@H](O)CN1CC[C@@H](OCc2ccncc2)C[C@H]1C(=O)NC(C)(C)C | p24 | 0.075 µM | AZT-resistant | - | C8166 | 90% |
| CN=C1CN=C(c2ccc[nH]2)c2cc(Cl)ccc2N1 | syncytia | 1 µM | LAV-1 | - | HT4 + HT4-6C | 68% |
| c1cc(CN2CCCNCCNCCCNCC2)ccc1CN1CCCNCCNCCCNCC1 | p24 | 0.5 µM | CM235 CLADE E R5 | - | PBMC | 22% |
| Nc1ncnc2c1ncn2[C@@H]1C=C(CO)[C@@H](O)[C@H]1O | cytopathic effect | 5 µg/mL | LAV Laboratory strain | - | ATH8 | 0% |
| CCCCCn1c2ccccc2c2cc(C(=O)C3CSCCN3)nc(C)c21 | p24 / ELISA / antigen | 1.36 µM | NL4-3 | - | CEM-GFP | 0% |
| CSC[C@H](NC(=O)COc1cccc2cnccc12)C(=O)N[C@@H](Cc1ccccc1)[C@H](O)C(=O)N1CSC(C)(C)[C@H]1C(=O)NC(C)(C)C | trypan blue | 0.09 µM | MN | - | ATH8 | 90% |
| CC(C)CCCCCN1C(=O)N(CCCCCC(C)C)[C@H](Cc2ccccc2)[C@H](O)[C@@H](O)[C@H]1Cc1ccccc1 | hybridisation | 18 µM | RF | - | MT-2 | <90% |
| COc1cc2c3cc1Oc1c(O)c(OC)cc4c1C(Cc1ccc(cc1)Oc1cc(ccc1O)CC3N(C)CC2)N(C)CC4 | cytopathic effect / visual reading | 31.3 µg/mL | IIIB | - | MT-4 | 100% |
| Nc1ccn(C/C=C/CO)c(=O)n1 | cytopathic effect / trypan blue | 100 µM | IIIB | - | ATH8 | 0% |
| C/C=C(\C)C(=O)O[C@@H]1[C@@H](OC(=O)c2ccccc2)[C@H]2[C@@H](CC=C3C[C@@H](O[C@H]4C[C@@H](OC)[C@H](O[C@@H]5OC(C)[C@@H](O[C@@H]6OC(CO)[C@@H](O[C@@H]7OC(CO)[C@@H](O)[C@H](O)C7O)[C@H](O)C6O)[C@H](OC)C5O)C(C)O4)CC[C@@]32C)[C@@]2(O)CC[C@H](C(C)=O)[C@@]12C | luciferase | 30 µM | - | pseudotyped | SupT1 | 22.54% |
| O=c1[nH]cnc2c1ncn2[C@H]1CC[C@@H](CO)O1 | cytopathic effect / trypan blue | 10 µM | IIIB | - | ATH8 | 97% |
| CC(C)CCCCN1C(=O)N(CCCCC(C)C)[C@H](Cc2ccccc2)[C@H](O)[C@@H](O)[C@H]1Cc1ccccc1 | hybridisation | 95 µM | RF | - | MT-2 | <90% |
| Cc1nc(C(=O)C2CCCNC2)cc2c1[nH]c1ccccc12 | p24 / ELISA / antigen | 1.71 µM | NL4-3 | - | CEM-GFP | 0% |
| Nc1ncnc2c1ncn2C=C=CCO | cytopathic effect / trypan blue | 100 µM | IIIB | - | ATH8 | 97% |
| NC(N)=NCCC[C@@H](C=O)NC(=O)CNC(=O)[C@@H]1CCCN1 | syncytia | 25 µg/mL | IIIB | - | H9 | 0% |
| NC(=O)c1ncn([C@@H]2O[C@H](CO)[C@@H](O)[C@H]2O)n1 | cytopathic effect | 100 µg/mL | LAV Laboratory strain | - | ATH8 | 0% |
| O=C(O)P(=O)(O)O | p24 / antigen | 300 µM | IIIB | 2 d | H9 | 100% |
| CC(C)(C)NC(=O)[C@@H]1C[C@@H]2CCCC[C@@H]2CN1C[C@@H](O)[C@H](Cc1ccccc1)NC(=O)[C@H](CC(N)=O)NC(=O)c1ccc2ccccc2n1 | ELISA | 60 µM | IIIB | - | HuT-78 | 83% |
| CCN1C(=O)N(CC)[C@H](Cc2ccccc2)[C@H](O)[C@@H](O)[C@H]1Cc1ccccc1 | hybridisation | 132 µM | RF | - | MT-2 | <90% |
| CC(C)C[C@H](NC(=O)[C@H](Cc1ccccc1)NC(=O)CNC(=O)CNC(=O)[C@@H](N)Cc1ccc(O)cc1)C(=O)O[C@@H]1O[C@H](CO)[C@@H](O)[C@H](O)[C@H]1O | syncytia / RT activity | 100 µM | - | - | PBL | 25% |
| C[C@@H](C=O)NC(=O)[C@@H]1CCCN1C(=O)CN | syncytia | 25 µg/mL | IIIB | - | H9 | 15% |
| C/C=C(\C)C(=O)O[C@@H]1[C@@H](OC(=O)c2ccccc2)[C@H]2[C@@H](CC=C3C[C@@H](O[C@H]4C[C@@H](OC)[C@H](O[C@@H]5OC(C)[C@@H](O[C@@H]6OC(CO)[C@@H](O)[C@H](O)C6O)[C@H](OC)C5O)C(C)O4)CC[C@@]32C)[C@@]2(O)CC[C@H](C(C)=O)[C@@]12C | luciferase | 30 µM | - | pseudotyped | SupT1 | 20.06% |
| C/C(=C(/CCOC(=O)C(C)C)SS/C(CCOC(=O)C(C)C)=C(\C)N(C=O)Cc1cnc(C)nc1N)N(C=O)Cc1cnc(C)nc1N | p24 | 50 µM | LAV-1 | - | CEM/HIV-1(LAV-1) + CEM | 0% |
| CCNc1cccnc1N1CCN(C(=O)c2cc3cc(OC)ccc3[nH]2)CC1 | MTT | 1 µM | Seropositive clinical isolate D | - | PBMC | 64% |
| CC(C)C[C@H](NC(=O)[C@H](Cc1ccccc1)NC(=O)CNC(=O)CNC(=O)[C@@H](N)Cc1ccc(O)cc1)C(=O)NC[C@H]1OC(O)[C@H](O)[C@@H](O)[C@@H]1O | syncytia / RT activity | 100 µM | - | - | PBL | 16% |
| Nc1cccc(CN2C(=O)N(Cc3cccc(N)c3)[C@H](Cc3ccccc3)[C@H](O)[C@@H](O)[C@H]2Cc2ccccc2)c1 | virus yield | 0.13 µM | THAI (PR-WT) | - | MT-2 | 90% |
| CCCCCCCN1C(=O)N(CCCCCCC)[C@H](Cc2ccccc2)[C@H](O)[C@@H](O)[C@H]1Cc1ccccc1 | hybridisation | 96 µM | RF | - | MT-2 | <90% |